Measurements: article PMC4907486, “Immunosuppressive Yersinia Effector YopM Binds DEAD Box Helicase DDX3 to Control Ribosomal S6 Kinase in the Nucleus of Host Cells” (2016)

Legend:
[1] = molecular target: YopM_34–481 from Y. enterocolitica WA314, purified (Yersinia enterocolitica serotype O:8 strain WA314); experiment: SAXS
[2] = molecular target: YopM_34–481 from Y. enterocolitica WA314, purified (Yersinia enterocolitica serotype O:8 strain WA314); experiment: crystal structure
His-DDX3_1–418 (human) [3] = molecular target: His-DDX3_1–418 (human) (UniProt O00571); experiment: MST
His-DDX3_1–418 (human) [4] = molecular target: His-DDX3_1–418 (human) (UniProt O00571); experiment: SEC
[5] = molecular target: YopM from Y. enterocolitica WA314, full length, purified (Yersinia enterocolitica serotype O:8 strain WA314); experiment: SEC

Substance | stoichiometry N [1] | stoichiometry N [2] | Kd (His-DDX3_1–418 (human) [3]) | stoichiometry N (YopM 34–481 per DDX3 1–418) (His-DDX3_1–418 (human) [4]) | stoichiometry N [5] | stoichiometry N (YopM per DDX3 1–418) (His-DDX3_1–418 (human) [4])
YopM_34–481 from Y. enterocolitica WA314, purified (domain or fragment) | 2 | 2 | 18 µM | 2 |  | 
YopM from Y. enterocolitica WA314, full length, purified (natural protein) |  |  | 12 µM |  | 2 | 2
